Results of unrelated studies side by side (data: NIAID ChemDB).

All rows: growth or infection tests; organism: Aspergillus niger; method: agar diffusion; endpoint: zone

Rows are shuffled and stem from different studies.

| smiles | tested at | strain or isolate | value |
|---|---|---|---|
| O=C(/C=C/c1ccccc1)c1ccc2occc2c1O | 50 µg/disc |  | 0 mm |
| C(/C=C/c1ccccc1)=NCCNCCN=C/C=C/c1ccccc1.[I][Hg][I] | 10000 µg/mL |  | 31 mm |
| Cc1ccc(N2NOC(=O)C2S(=O)(=O)Nc2ccc(-n3c(-c4cccc([N+](=O)[O-])c4)nc4ccccc4c3=O)cc2)cc1 | 250 µg/mL | MTCC 282 | 23 mm |
| Cc1ccc2nc(Cl)c(CN3CCN(C)CC3)cc2c1 | 200 µg/mL | MTCC 281 | 6.1 mm |
| O=C(/C=C/c1ccccc1)c1c(O)cc2occc2c1O | 50 µg/disc |  | 0 mm |
| C(/C=C/c1ccccc1)=NCCNCCN=C/C=C/c1ccccc1.N#C[S][Hg][S]C#N | 20000 µg/mL |  | 26 mm |
| Cc1ccc2nc(Cl)c(CNc3cccc(Cl)c3)cc2c1 | 200 µg/mL | MTCC 281 | 12.03 mm |
| COc1ccc(-c2oc3ccccc3c(=O)c2OC(C)=O)cc1OC | 100 µg/mL |  | 13 mm |
| Cc1ccc(N2NOC(=O)C2S(=O)(=O)Nc2nc(-c3ccc(Cl)cc3)cs2)cc1 | 250 µg/mL | MTCC 282 | 23 mm |
| Cc1ccc2nc(Cl)c(CN3CCCCC3)cc2c1 | 200 µg/mL | MTCC 281 | 6.44 mm |
| CC(=O)Oc1c(-c2ccc(C)cc2)oc2ccccc2c1=O | 100 µg/mL |  | 13 mm |
| O=C(/C=C/c1ccc2c(c1)OCO2)c1ccc2occc2c1O | 50 µg/disc |  | 0 mm |
| O=c1c(O)c(-c2ccc(Cl)cc2)oc2ccccc12 | 100 µg/mL |  | 15 mm |
| Cc1ccc2nc(Cl)c(CNc3ccc(Br)cc3)cc2c1 | 200 µg/mL | MTCC 281 | 12.16 mm |
| Cc1ccc(N2NOC(=O)C2S(=O)(=O)Nc2ccc(-n3c(-c4ccccc4)nc4ccccc4c3=O)cc2)cc1 | 250 µg/mL | MTCC 282 | 20 mm |
| CC(=O)Oc1c(-c2ccc(Cl)cc2)oc2ccccc2c1=O | 100 µg/mL |  | 18 mm |
| Cc1ccc2nc(Cl)c(CNc3ccc([N+](=O)[O-])cc3)cc2c1 | 200 µg/mL | MTCC 281 | 8.03 mm |
| Cc1ccc([O][Hg][Cl])c(/C=N/NC(=O)Nc2nc(-c3ccccc3)cs2)c1 | 100 µg/mL |  | 20 mm |
| Cc1ccc(NCc2cc3cc(C)ccc3nc2Cl)cc1 | 200 µg/mL | MTCC 281 | 10.59 mm |
| CC(C)(CN=C/C=C/c1ccccc1[N+](=O)[O-])CN=C/C=C/c1ccccc1[N+](=O)[O-] | 1.25 mg/disc |  | 0.65 mm |
| O=c1c(O)c(-c2ccco2)oc2ccccc12 | 100 µg/mL |  | 17 mm |

A second listing of 2 rows from above:

smiles	tested at	strain or isolate	value
Cc1ccc2nc(Cl)c(CN3CCN(C)CC3)cc2c1	200 µg/mL	MTCC 281	6.1 mm
C(/C=C/c1ccccc1)=NCCNCCN=C/C=C/c1ccccc1.[I][Hg][I]	10000 µg/mL		31 mm

Blank or dashed fields: not listed here. Zone: diameter of growth inhibition.